Test results from publication PMC4047001.

Test system: NF-kB p50 + NF-kB p65
Assay: EMSA supershift
Details: TF-1 extract, TF-1 nuclear extract, 1x binding buffer (composition not given), 1 ug poly(dI-dC), 15 ug BSA, 20 uL, 30 min at 4 C, 4.5% native gel at 4 C, pH and salt not given, protein in an extract, label: 32P end label
[1] = TNF-a treated, more complex than WT
[2] = untreated, more complex than WT
[3] = TNF-a treated, complex less prominent than with 5T/3T5T

Sequence: TCGAGCTTGCTACAAGGGACTTTCCGCTGGGGACTTTCCAGGGAGGTGTGGCC (double strand) [LAI LTR 5T long probe]
- binding result [1]: binds
- binding result [2]: binds

Sequence: TCGAGTTTGCTACAAGGGACTTTCCGCTGGGGACTTTCCAGGGAGGTGTGGCC (double strand) [LAI LTR 3T5T long probe]
- binding result [1]: binds
- binding result [2]: binds

Sequence: TCGAGTTTGCTACAAGGGACTTTCCGCTGGGGACTTTCCAGGGAGGCGTGGCC (double strand) [LAI LTR 3T long probe]
- binding result [3]: binds

Sequence: TCGAGCTTGCTACAAGGGACTTTCCGCTGGGGACTTTCCAGGGAGGCGTGGCC (double strand) [LAI LTR WT long probe]
- binding result [3]: binds

For at least one entry, the source does not settle the construct or the ends of the probe. Results from cells or extracts need not show a direct contact. At least one verdict was read from the data and is not stated in words by the source.
